Measurements published in paper PMC7557402, “Evaluation of Nucleoside Analogs as Antimicrobials Targeting Unique Enzymes in Borrelia burgdorferi” (Pathogens, 2020).

Tested on: Borrelia MTANs (Bgp, MtnN, Pfs)
Experiment: MTAN activity/kinetics, across the nucleosidases
Type: biochemical
Details: Ki and Ki’ compared with the other nucleosides
Method: Enzyme specific activities were determined using previously reported optimal pH conditions (50 mM sodium phosphate, pH = 7, for Bgp, MtnN; 50 mM sodium phosphate-citrate, pH = 5, for Pfs) and a spectrophotometric activity assay that measures the decrease in UV absorbance at 275 nm that occurs when MTA is cleaved to 5-methylthioribose and adenine (ε275 = 1.6 mM^−1cm^−1). The extinction coefficients for cleavage of other nucleosides were experimentally validated and found to be the same for MSeA, FSBA, and IADO (ε275 = 1.6 mM^−1cm^−1). Due to the added UV absorbance imparted by the 5′ purine group found in PurTA, the enzyme reactions were followed spectrophotometrically at 260 nm using the experimentally determined extinction coefficient of ε260 = 5.6 mM^−1cm^−1. Enzyme specific activities for MTA were generally 1–2 U/mg (1 U = µmol MTA hydrolyzed/min). The enzyme specific activities for other nucleosides were determined and reported in U/mg and as the % max specific activity (relative to MTA at 100%).
Kinetic constants have been previously reported for MTA [18]. […]

SMILES: CCC[C@H]1N[C@@H](c2c[nH]c3c(N)ncnc23)[C@H](O)[C@@H]1O [dEt-ImmA, 5′-deoxy-5′-ethyl-immucillin A]
- affinity for MTANs tighter than the other nucleosides: approximately 1000 fold
